Measurements as given in US20230374114A1, “Coronavirus antibodies and methods of use thereof” (Dana-Farber, published 2023).
Residue numbers refer to the chain shown, from its start.

B1: Ab_14 (scFv, V domains shown)
VH: QVQLQQSGPGLVKPSQTLSLTCAISGDSVSSNSAAWNWIRQSPARGLEWLGRTYYRSRWYNDYAISMKSRITINPDTSKNQFSLQLESVTPEDTAVYYCAREIRGFDYWGQGTLVTVSS
VL: QSVLTQPPSASGSPGQSVTISCTGTSSDVGAYNFVSWYQHHPGKAPKLIIYDFNKRPSGVPDRFSGSKSGNTASLTVSGLQADDEADYYCSSYAGSNNFDVVFGGGTKLTVL
notes: also called Ab 14 scFv-Fc
B2: Ab_16 (scFv, V domains shown)
VH: QVQLVQSGGGVVQPGRSLRLSCAASGFTFSNYGMHWVRQAPGKGLEWVALIWERGSKKDYADSVKGRFTVSRDNSKNTLYLQMNSLRPEDTAVYFCAREGISMTGAEYFQHWGQGTLVTVSS
VL: QSVLTQPPSVSGSPGQRVTMSCTGSSSNIGAGYDVHWYQQVPGAAPRLLIYGTNNRPSGVPDRFSGSKSGTSASLTITGLQAEDEADYYCQSYDNSLTDPYVFGTGTKVTVL
notes: also called Ab 16 scFv-Fc
B3: Ab_17 (scFv, V domains shown)
VH: QVQLVQSGGGVVQPGRSLRLSCAASGFTFDDYAMHWVRQVPGKGLEWVSGIDWNSGVIGYADSVKGRFTISRDNVKNSLYLQMNSLRTEDSALYYCAKDIGPGGSGSYYAFDIWGQGTTVTVSS
VL: QSALTQPASVSGSPGQSITISCTGTSSDVGGSKYVSWYQQHPGKAPKVMIYDVTKRPSGVPDRFSGSKSGNTASLTISGLQAEDEADYYCAAWDDSLNGVVFGGGTKLTVL
notes: also called Ab 17 scFv-Fc
B4: Ab_18 (scFv, V domains shown)
VH: EVQLVQSGGGVVQPGRSLRVSCAASGFSFSRYGMHWVRQAPGKGLEWVAFIRHDGSKKYYADSVEGRFTISRDNSRNTVSLEMNSLRGEDTAVYYCAKDGRLEAALDDWGQGTLVTVSS
VL: NFMLTQPHSMSGSAGKTVTVSCIRSSGSIANNFVQWYQQRPGSAPTTVIYEDNQRPSGVPDRFSGSIDSSSNSASLTISGLKTEDEADYYCQSYDSSNLVFGGGTRLTVL
notes: also called Ab 18 scFv-Fc
B5: Ab_19 (scFv, V domains shown)
VH: EVQLVESGAEVKKPGESLKISCKGSGYSFTSYWIGWVRQMPGKGLEWMGIIYPGDSDTRYSPSFQGQVTISADKSISTAYLQWSSLKASDTAMYYCARRGDLDAFDIWGQGTMVTVSS
VL: QPGLTQPPAASGTPGQRVTVSCSGASANIGSNAVSWFKQFPETAPRLLISGNTHRPSGVPDRVSGSKSGTSASLTISGLQSDDEADYYCAAWDDSLNGYVFGSGTKVTVL
notes: also called Ab 19 scFv-Fc
B6: Ab 20 (scFv, V domains shown)
VH: QVQLVQSGGGSVKPGGSLRLSCAASGYRLSDYYMHWVRQAPGKGLEWVANIKQDGSEKYYVDSVKGRFTISRDNAKNSLYLQMNSLRAEDTAVYYCARVRGWSRGYFDYWGQGTLVTVSS
VL: NFMLTQPHSVSESPGKTVTISCTGSSGSIASNYVQWYQQRPGSAPTTVIYEDNQRPSGVPDRFSGSIDSSSNSASLLISGLKTEDEADYYCQSYDSSNHWVFGGGTKLTVL
notes: also called Ab 20 scFv-Fc
B7: Ab 21 (scFv, V domains shown)
VH: QVQLVQSGGGLVQPGGSLRLSCATSGFTFDDYAMHWVRQAPGKGLEWVSGISWNSGSIGYVDSVKGRFTISRDNRNNKVYLQMNNLRAEDTAVYYCARDWWGSIDHWGLGTLVTVSS
VL: QSALTQPRSVSGSPGQSVTISCTGTSSDVGGYDYVSWYQQHPGKAPKLIIYDVSKRPSGVPDRFSGSKSGNTASLTVSGLQAEDEADYYCSSYTSSSPVVFGGGTKLTVL
notes: also called Ab 21 scFv-Fc
B8: Ab 23 (scFv, V domains shown)
VH: EVQLVQSGAEVKKPGSSVKVSCRSSGGTFSTYGITWVRQAPGQGLEWMGRIIPSLGIPNYAQKFQGRVTITADTSVSTAWMELSSLESDDTAIYYCARENIDLATNDFWGQGTLVTVSS
VL: QSALTQPPSASGSPGQSVTISCTGTSRDIGAYGYVSWYQQVPGKAPKLIIYEVRNRPSGVSSRFSGSKSGNTASLTISGLQAEDEADYYCSSYTSSSTLDVVFGGGTKLTVL
notes: also called Ab 23 scFv-Fc
B9: Ab 25 (scFv, V domains shown)
VH: QVQLVQSGGGLVQPGGSLRLSCAASGFTFSSYWMSWVRQAPGKGLEWVANIKQDGSEKYYVDSVKGRFTISRDNAKNSLYLQMNSLRAEDTAVYYCARGFYYYGAFDIWGQGTTVTVSS
VL: B6 VL with D68G, L77T
notes: also called Ab 25 scFv-Fc
B10: Ab 27 (scFv, V domains shown)
VH: QVQLVQSGTEVKKPGASVKVSCKASGYSFTGSHLHWVRQAPGQGLEWMGWINPDSGVINYAQKFQGRVTLTRDTSISTAYMELSGLRSDDTAVYYCARDKAIGYVWALDYWGQGTLVTVSS
VL: QSALTQPPSVSGSPGQSVTISCTGTSSDVGTYNRVSWYQQPPGKAPKLMIYEVSNRPSGVSNRFSGSKSGNTASLTISGLQAEDEADYYCSSYTRTFTYVFGTGTKVTVL
notes: also called Ab 27 scFv-Fc
B11: Ab 28 (scFv, V domains shown)
VH: QVTLKESGPGLVNPSETLSLTCTVSGASISNSFWSWIRQSPGKGLEWIGYTSYSGNSIYNPSLKSRLTMSIDTSKNQLSLNLRSLTAADTAVYYCARREWIKGHFDYWGQGTLVTVSS
VL: B6 VL with S26G, L77T, H99P, W100V
notes: also called Ab 28 scFv-Fc
B12: S1-RBD-R3-T1-C7 Ab (Ab 29) (scFv, V domains shown)
VH: QVQLQQSGPGLVKPSQTLSLTCAISGDSVSSYSDAWNWIRQSPSRGLEWLGRTYYRSKWYNDYAVSVKSRITINPDTSKNQFSLQLSSVTPEDTAVYYCAREIVATTPFRNYYYGMDVWGQGTTVTVSS
VL: NFMLTQPHSVSESPGNTVTISCTRTSGSIASNYVQWYQQRPGSSPTTVIFQDKLRPSGVPDRFSGSIDSSSNSASLTISGLKTEDEADYYCQSYDSSSLWVFGGGTKLTVL
notes: also called Ab 29 scFv-Fc
B13: RBD-R3-E1-A5 Ab (Ab_30) (scFv, V domains shown)
VH: QVQLVQSGGGVVQPGKSLRLSCTASGFTFSDFPIHWVRQAPGKGLEWVGVISYDGNIKYYGDSVKGRFTISRDNAKNSLYLQMNSLRVEDTAVYYCARGGSSFDIWGQGTTVTVSS
VL: SYELTQPPSVSEAPRQRVTISCSGSTSNIGNNAVSWYQHLPGKAPKLLIYYNERLPSGVSDRFSGSKSGTSASLAISGLRSEDEADYYCAAWDDSLSGHVVFGGGTKLTVL
notes: also called Ab 30 scFv-Fc
B14: S1-RBD-R3-T1-B12 Ab (Ab_31) (scFv, V domains shown)
VH: QVQLVQSGAEVKKPGSSVKVSCKASGGTFSSYTISWVRQAPGQGLEWMGGIIPILGTPNYAQKFQDRVAITADKSTSTAYMELSSLRSEDTAVYYCAVGSGWYSGFDYWGQGTLVTVSS
VL: B6 VL with N53S, L77T, Y94F, D95H, S96N, H99P, W100V, V101I
notes: also called Ab 31 scFv-Fc
B15: RBD-R3-E1-B3 Ab (Ab_32) (scFv, V domains shown)
VH: QVQLVQSGAEVKKPGESLKISCKGSGYSFTSYWIGWVRQMPGKGLEWMGIIYPGDSDTRYSPSFQGQVTISADKSISTAYLQWSSLKASDTAMYYCARGWQWHDYWGQGTLVTVSS
VL: QTVVTQEPAVSVALGQTVRITCQGDSLRSYYASWYQQKPGQAPVLVVYDKDKRPSGIPDRFSGSTSGNTASLTITGAQAEDEADYYCNSRDRSDNHVVFGGGTKLTVL
notes: also called Ab 32 scFv-Fc
B16: S1-RBD-R3-T1-D7 Ab (Ab_34) (scFv, V domains shown)
VH: QVQLVQSGVEVKKPGESLKISCKGSGYSFTSYWIGWVRQMPGKGLEWMGIIYPGDSDTRYSPSFQGQVTISADKSISTAYLQWSSLKASDTAMYYCARTTYSYGSFDYWGQGTLVTVSS
VL: QPGLTQPPSASGTPGQGVTISCSGSSSNIGGNSVHWYQQLPGTAPKLLIYRNNQRPSGVPDRFSGSKSGTSASLAISGLRSEDEADYYCAAWDDSLNGWVFGGGTKLTVL
notes: also called Ab 34 scFv-Fc
B17: RBD-R3-T1-H3 (Ab_2) (scFv, V domains shown)
VH: EVQLVQSGAEVKKPGSSVKVSCKTSGYTFTTSGISWVRQAPGQGLEWMGWISAYNGNTNYAQKLQGRVTMTTDTSTSTAYMELRSLRSDDTAVYYCARDFHLYYGMDVWGKGTLVTVSS
VL: QSALTQPPSASGSPGQSVTISCTGTSSDVGAYNYVSWYQQHPGKAPKLLIYDVTKRPPGVPDRFSGSKSGNTASLTVSGLQAEDEADYYCAVWDDGLNGRVVFGGGTKLTVL
notes: also called Ab 2 scFv-Fc
B18: S1-R3-T1-C4 (Ab_8) (scFv, V domains shown)
VH: QVQLVQSGAEVKKPGSSVKVSCKASGGTFSSYAISWLRQAPGQGLEWMGWINPNSGGTNYAQKFQGRVTMTRDTSISTAYMELSRLRSDDTAVYYCARGSGGYYLGWGQGTLVTVSS
VL: QPGLTQPPSVSKGLRQTATLTCTGNSNNVGNQGAAWLQQHQGHPPKLLSYMNNNRPPGISERFSASRSGNTASLTITGLQPEDEADYYCSAWDSSLSRWVFGGGTKLSVL
notes: also called Ab 8 scFv-Fc
B19: S1-R3-T1-H7 (Ab12) (scFv, V domains shown)
VH: EVQLVESGPGVVSPSATLFLTCSVSGGSIRTHSWNWIRQPPGKPLEWIGFIHHSGATNKNPSLKSRVTISSDTSKNEFSLTLTSVTAADTAVYYCARGPGILSYWSRGTLVTVSS
VL: LPVLTQPPSASGTPGQRVTISCSGSSSNIGSNTVNWYQQLPGTAPKLLIYSNNQRPSGVPDRFSGSKSGTSASLAISGLQSEDEADYYCAAWDDSLNVHYVFGSGTKVTVL
notes: also called Ab 12 scFv-Fc
B20: Ab_13 (scFv, V domains shown)
VH: QVTLKESGPKLVKPTQTLTLTCTFSGFSLSTSGVGVGWIRQPPGKALEWLALIYWDDDKRYSPSLKSRLTIAKDTSKYQVVLTMTNMDPVDTATYYCARISGSGYFYPFDIWGQGTMVTVSA
VL: B6 VL with G24R, L77T, H99L
B21: S1-RBD-R3-E1-E8 Ab (Ab 37) (scFv, V domains shown)
VH: QVQLVQSGAEVKKPGASVKVSCKASGYTFTSYGISWVRQAPGQGLEWMGWISTYNGNTNYAQKLQGRVTMTTDTSTSTAYMEVRSLRSDDTAVYYCARDVFGHFDYWGQGTLVTVSS
VL: NFMLTQPHSVSESPGKTVLISCTRSSGNIATNYVQWYQQRPGSAPTTVIYEDNQRPSGVPDRFSGSIDSSSNSASLTISGLKTEDEADYYCKSYDDGNHVFGGGTKLTVL
notes: also called Ab 37 scFv-Fc

Target: WT Spike (SARS-CoV-2, UniProt P0DTC2 16-1213)
Experiment: biosensor, scFv-Fc loaded at 1 ug/ml, spike in solution at 48.3 nM

In order of falling Response:
1. B2  0.346
2. B1  0.313
3. B3  0.248
4. B4  0.216
5. B10  0.202
6. B19  0.186
7. B7  0.147
8. B11  0.132
9. B15  0.131
10. B12  0.126
11. B5  0.121
12. B18  0.118
13. B13  0.107
14. B14  0.101
15. B16  0.1
16. B6  0.0985
17. B8  0.0845
18. B20  0.0732
19. B17  0.0652
20. B9  0.0219

Target: WT Spike (SARS-CoV2, UniProt P0DTC2 16-1213)
Experiment: biosensor kinetics; scFv-Fc loaded at 1 ug/ml, spike as analyte at 48.3 nM

B21 was tested, and the Response was 0.0801.
